Experimental findings from paper PMC12432378 (Cell Reports Medicine, 2025) are described below.

Assay [1] has as its system inflammatory genes in MjHKU4r-CoV-1-infected Caco-2 cells. Put plainly: Inflammatory gene expression induced by MjHKU4r-CoV-1 infection in Caco-2 cells, RT-qPCR. Particulars: 40 nM peptide. On the technique in general: In qPCR the cycle at which signal appears reflects the starting amount.
In the next assay the test system is HCoV-OC43. Put plainly: Lethal HCoV-OC43-infected mouse model. Type of assay: in vivo. Conditions: newborn ICR mice, 3 mg/kg intranasal 30 min after challenge, n = 6; rapid recovery by 8 dpi; Figure S7C.

Regarding `CC[C@H](C)[C@H](NC(=O)[C@H](C)NC(=O)[C@H](CCSC)NC(=O)[C@H](CCC(=O)O)NC(=O)[C@H](CC(=O)O)NC(=O)[C@H](CO)NC(=O)[C@H](CC(C)C)NC(=O)[C@H](CC(=O)O)NC(=O)[C@H](CC(C)C)NC(=O)[C@H](CC(C)C)NC(=O)[C@@H](NC(=O)[C@@H](NC(=O)[C@H](CC(N)=O)NC(=O)[C@@H](NC(=O)[C@H](CCCCN)NC(=O)[C@H](CO)NC(=O)[C@@H](NC(=O)[C@H](CCC(=O)O)NC(C)=O)[C@@H](C)CC)[C@@H](C)CC)C(C)C)[C@@H](C)O)C(=O)N[C@@H](CC(C)C)C(=O)N[C@@H](CC(C)C)C(=O)N[C@@]1(C)CCCC=CCCC[C@@](C)(C(=O)N[C@@H](CC(C)C)C(=O)N[C@@H](CC(N)=O)C(=O)N[C@@H](CC(=O)O)C(=O)N[C@@H](CO)C(=O)N[C@@H](Cc2ccc(O)cc2)C(=O)N[C@H](C(=O)N[C@@H](CC(=O)O)C(=O)N[C@@H](CC(C)C)C(=O)N[C@@H](CCCCN)C(=O)N[C@@H](CCC(=O)O)C(=O)N[C@@H](CC(C)C)C(N)=O)[C@@H](C)CC)NC(=O)[C@H](CCCCN)NC(=O)[C@H]([C@@H](C)CC)NC(=O)[C@H](C)NC1=O` [MjHKU4r-HR2P10], the “Upregulation of inflammatory genes (IL-6, TNF-α, IFN-β1, IFN-λ1, and IFN-λ3) induced by MjHKU4r-CoV infection” value in assay [1] (Figure 6F) is given as “completely blocked”. Moreover, in assay [1] (Figure S6), the “Upregulation of inflammatory genes (CXCL2, CCL5, IFN-λ2) induced by MjHKU4r-CoV-1 infection” value is “completely blocked”. For the same molecule, the “Body weight change after HCoV-OC43 challenge” value with HCoV-OC43 is on record as “only minimal weight loss”.
